Pooled drug test results. Numbers come from NIAID ChemDB, via PubChem.

All rows: growth or infection tests; agent: HIV-1; cells: MT-4; endpoint: EC50

ECn: concentration that inhibits the pathogen or its effect by n%. Rows are shuffled and stem from different studies. An empty or dashed field is not shown.

structure,strain or isolate,mutations,method,result
CCc1cc(NCc2nc3c(Cl)ccc(Cl)c3o2)c(=O)[nH]c1C,MN,-,p24,<0.1 µM
C=C1[C@H](CO)[C@@H](O)C[C@@H]1n1cnc2c(=O)[nH]c(N)nc21,RES056,-,MTT,>0.025 µM
Nc1ccn([C@H]2CO[C@@H](CO)S2)c(=O)n1,IIIB,-,cytopathic effect / MTT,26 µM
CCOC(=O)CN1C(=O)c2cccn2S(=O)(=O)c2ccccc21,IIIB,-,cytopathic effect / MTT,23 µM
CSc1nccc(-c2ccc(S(=O)(=O)N3CCN(C[C@@H](O)C[C@@H](Cc4ccccc4)C(=O)NCc4c(C)cc(O)cc4C)[C@H](C(=O)NC(C)(C)C)C3)s2)n1,IIIB,-,p24,<0.063 µM
CN(C)CCCN1c2ccccc2Sc2ccc(Cl)cc21,IIIB,-,cytopathic effect / MTT,>100 µg/mL
C=S(=C)(N)c1ccc(CN2CCC(Nc3nc(Nc4c(C)cc(C)cc4C)c4[nH]cnc4n3)CC2)cc1,RES056,-,MTT,>23.89 µM
O[C@H]1[C@H]2c3cc4c(cc3CN3CCC(=C[C@@H]1O)[C@H]23)OCO4,IIIB,-,RT activity,0.4 µg/mL
Cc1cc(O)cc(C)c1CNC(=O)[C@H](Cc1ccccc1)C[C@H](O)CN1CCN(S(=O)(=O)c2ccc3c(c2)CCN3c2ncccn2)C[C@H]1C(=O)NC(C)(C)C,IIIB,-,p24,<0.031 µM
Nc1ccn([C@H]2CC[C@@H](CO)O2)c(=O)n1,IIIB,-,cytopathic effect / MTT,0.5 µM
Nc1ncnc2c1ncn2C[C@H]1C[C@@]1(CO)c1ccccc1,-,-,cytopathic effect,>100 µg/mL
CCCCCCCCCC(=O)O[C@@]12[C@H](OC(C)=O)[C@@H](C)[C@@]3(O)[C@@H](C=C(CO)C[C@]4(O)C(=O)C(C)=C[C@@H]34)[C@@H]1C2(C)C,LAV-1,-,cytopathic effect / microscopy / visual reading,<0.0076 µg/mL
CCc1nc2ccccn2c1C(=O)c1ccco1,IIIB,-,RT activity,18 µM
CO[C@@H]1[C@@H](O)[C@@H](O)[C@H](O)[C@H](O)[C@H]1n1ccc(N)nc1=O.O=C(O)/C=C/C(=O)O,IIIB,-,cytopathic effect / MTT,>10 µg/mL
CN(C)CCN1CC(=O)N2c3ccccc3N(C)n3cccc3C2C1=O,IIIB,-,cytopathic effect / MTT,193 µM
CO[C@H]1CC2=C([C@H]3CC4=CC(=O)O[C@@]45C[C@@H]3N3CCC[C@@H]35)C(=O)O[C@@]23C[C@@H]1N1CCC[C@@H]13,NL4-3,-,MTT / absorbance,63.9 µM
CC(C)[C@H](NC(=O)OCc1ccccc1)C(=O)N[C@@H](Cc1ccc(OCc2ccccc2)cc1)C(=O)C(F)(F)C(=O)NCc1ccccc1,RF,-,MTT,0.6 µM
CCN1c2ncccc2N(C)C(=S)c2oc3cccnc3c21,IIIB,-,cytopathic effect,0.1 µM
CCOC(=O)C1Nc2ccccc2S(=O)(=O)n2cccc21,IIIB,-,cytopathic effect / MTT,>300 µM
O=C(O)CSc1ccc2[nH]c3ccccc3c(=O)c2c1,IIIB,-,trypan blue,<100 µg/mL
CO[C@@H]1[C@@H](O)[C@@H](O)[C@H](O)[C@H](O)[C@H]1n1ccc(N)nc1=O,IIIB,-,cytopathic effect / MTT,<10 µg/mL
Cc1cc(C)c(Nc2nc(NC3CCN(Cc4ccc(C(N)=O)cc4)CC3)nc3nc[nH]c23)c(C)c1,RES056,-,MTT,>23.85 µM
Cc1cn([C@@H]2O[C@H](CO[Si](C)(C)C(C)(C)C)C3(OS(=O)(=O)C=C3N)[C@H]2O[Si](C)(C)C(C)(C)C)c(=O)n(CC(=O)N[C@@H](C)C(=O)OCc2ccccc2)c1=O,IIIB,-,cytopathic effect / trypan blue,0.18 µM
Cc1cn([C@H]2C[C@H](N=[N+]=[N-])[C@@H](CO)O2)c(=O)[nH]c1=O,-,-,cytopathic effect,0.001 µg/mL
O=c1[nH]cnc2c1ncn2[C@H]1CC[C@@H](CO)O1,RF,-,RT activity,0.68 µM
CC(C)(C)NC(=O)[C@@H]1C[C@@H]2CCCC[C@@H]2CN1C[C@@H](O)[C@H](Cc1ccccc1)NC(=O)[C@H](CC(N)=O)NC(=O)c1ccc2ccccc2n1,-,-,MTT,0.01 µM
CCN(C)c1nc(C(C)c2c(F)cccc2F)c(C)c(=O)[nH]1,NNRTI-resistant,RT-Y188L,cytopathic effect / MTT,0.03 µM
COc1ccc(CN2CCC(Nc3nc(Nc4c(C)cc(C)cc4C)c4[nH]cnc4n3)CC2)cc1,IIIB,-,MTT,>15.1 µM
CO[C@@H]1C=C[C@@]23c4cc5c(cc4CN(C[C@@H]2O)[C@H]3C1)OCO5,IIIB,-,p24,0.8 µg/mL
CCc1nc2ccccn2c1C(=O)c1ccc(O)cc1,IIIB,-,RT activity,>100 µM
O=C1Nc2ccccc2S(=O)(=O)n2cccc21,IIIB,-,cytopathic effect / MTT,11 µM
CO[C@H]1CC2=CC(=O)O[C@@]23C[C@@H]1N1CCC[C@@H]13,NL4-3,-,MTT / absorbance,89 µM
CCc1nc2sccn2c1C(=O)c1ccco1,IIIB,-,RT activity,17 µM
O=C1C=C2C[C@H](C3=C4C=C[C@@H]5C[C@@]4(OC3=O)[C@H]3CCCN53)[C@@H]3C[C@@]2(O1)[C@H]1CCCN31,NL4-3,-,MTT / absorbance,7.8 µM
Cc1cc(C)c(Nc2nc(NC3CCN(Cc4cccnc4)CC3)nc3nc[nH]c23)c(C)c1,RES056,-,MTT,>132 µM
CO[C@H]1[C@@H](O)[C@H](n2ccc(N)nc2=O)[C@@H](O)[C@H](O)[C@@H]1O,IIIB,-,cytopathic effect / MTT,>10 µg/mL
Cc1cn([C@@H]2O[C@H](CO[Si](C)(C)C(C)(C)C)C3(OS(=O)(=O)C=C3N)[C@H]2O[Si](C)(C)C(C)(C)C)c(=O)n(CCOC(=O)[C@@H](N)C(C)C)c1=O,IIIB,-,cytopathic effect / trypan blue,0.13 µM
O=C1c2ccccc2C(=O)N1CCCN1c2ccccc2Sc2ccc(Cl)cc21,IIIB,-,cytopathic effect / MTT,>500 µg/mL
O=C(O)C1Nc2ccccc2S(=O)(=O)n2cccc21,IIIB,-,cytopathic effect / MTT,>300 µM
O=c1ccn(C[C@@H]2C[C@@]2(CO)c2ccccc2)c(=O)[nH]1,-,-,cytopathic effect,>100 µg/mL
CN1c2ccccc2Sc2ccccc21,IIIB,-,cytopathic effect / MTT,>20 µg/mL
CCc1nc2ncccn2c1C(=O)c1ccccc1,IIIB,-,RT activity,>100 µM
Cc1c(C(C)c2c(F)cccc2F)nc(SC2CCCC2)[nH]c1=O,NNRTI-resistant,RT-Y181C,cytopathic effect / MTT,0.1 µM
C/C=C(/C)C(=O)O[C@]12C(C3C=C(CO)C[C@]4(O)C(=O)C(C)=CC4[C@@]3(O)[C@H](C)[C@H]1OC(C)=O)C2(C)C,LAV-1,-,cytopathic effect / microscopy / visual reading,<125 µg/mL
Nc1ccn([C@H]2CC[C@@H](CO)O2)c(=O)n1,IIIB,-,cytopathic effect,1.9 ± 0.8 µM
Cc1cn([C@H]2C=C[C@@H](CO)O2)c(=O)[nH]c1=O,IIIB,-,cytopathic effect / MTT,1.1 µM
Nc1ccn([C@H]2CC[C@@H](CO)O2)c(=O)n1,AZT-resistant (RT M41L T215Y),RT-M41L T215Y,cytopathic effect,0.045 µM
COC(=O)N[C@H](C(=O)N[C@@H](Cc1ccccc1)C[C@H](O)[C@H](Cc1ccccc1)NC(=O)[C@@H]1CN(c2ccccc2)C(=O)O1)C(C)(C)C,NL4-3,-,cytopathic effect / MTT,1.03 µM
CCN1c2ccccc2Sc2ccccc21,IIIB,-,cytopathic effect / MTT,>500 µg/mL
CO[C@H]1[C@@H](O)[C@H](n2ccc(N)nc2=O)[C@@H](O)[C@H](O)[C@@H]1O.O=C(O)/C=C/C(=O)O,IIIB,-,cytopathic effect / MTT,>10 µg/mL
CC(=O)N[C@H](C(=O)N[C@@H](Cc1ccccc1)C[C@H](O)[C@H](Cc1ccccc1)NC(=O)[C@@H]1CN(c2ccc(F)c(F)c2)C(=O)O1)C(C)C,NL4-3,-,cytopathic effect / MTT,0.36 µM
CCc1nc2ccccn2c1C(=O)c1ccccc1,IIIB,-,RT activity,77 µM
CN1c2ccccc2N2C(=O)CN(CCN3CCOCC3)C(=O)C2c2cccn21,IIIB,-,cytopathic effect / MTT,198 µM
Nc1nc(NC2CC2)c2ncn([C@H]3C=C[C@@H](CO)C3)c2n1,-,RD 23-RTwt,cytopathic effect / MTT,1.78 µM
Cc1ccnc2c1NC(=O)c1cccnc1N2C1CC1,IIIB,-,MTT,0.29 µM
C/C=C(\C)C(=O)O[C@@]12[C@H](O)[C@@H](C)[C@@]3(O)[C@@H](C=C(COC(=O)CCCCCCC/C=C\C/C=C\CCCCC)C[C@]4(O)C(=O)C(C)=C[C@@H]34)[C@@H]1C2(C)C,LAV-1,-,cytopathic effect / microscopy / visual reading,<7.81 µg/mL
CC(C)Nc1cccnc1N1CCN(C(=O)c2cc3cc(NS(C)(=O)=O)ccc3[nH]2)CC1,IIIB,-,MTT,0.743 µM
CCOC(=O)C1c2cccn2S(=O)(=O)c2ccccc2N1C(=O)CBr,IIIB,-,cytopathic effect / MTT,>10 µM
C[C@H](Cn1cnc2c(N)ncnc21)OCP(=O)(O)O,-,RD 22-RTwt,cytopathic effect / MTT,0.56 µM
CCCCCCCCCC(=O)O[C@@H]1[C@@H](C)[C@@]2(O)C(C=C(CO)C[C@]3(O)C(=O)C(C)=CC23)C2C(C)(C)[C@@]21OC(=O)C(C)CC,LAV-1,-,cytopathic effect / microscopy / visual reading,<7.81 µg/mL
O=c1[nH]cnc2c1ncn2[C@H]1CC[C@@H](CO)O1,IIIB,-,cytopathic effect,23 ± 3.3 µM
Cn1c(C(OC(C)(C)C)C(=O)O)c(-c2ccc(CF)cc2F)c2ccccc2c1=O,-,-,luciferase,1.22 µM
CC(C)=CCN1c2cc(Cl)cc3[nH]c(=S)n(c23)C[C@@H]1C,-,RT-L74V A98G,-,<0.8 µM
Cc1cn([C@H]2C[C@H](N=[N+]=[N-])[C@@H](CO)O2)c(=O)[nH]c1=O,IIIB/LAI,-,cytopathic effect / MTT,0.003 µM
COC(=O)NCCCN1c2ccccc2Sc2ccc(Cl)cc21,IIIB,-,cytopathic effect / MTT,>500 µg/mL
Cc1cc(C)c(Nc2nc(NC3CCN(Cc4ccncc4)CC3)nc3nc[nH]c23)c(C)c1,IIIB,-,MTT,18.21 µM
CCO/N=C(/c1ccco1)c1c(CC)nc2sccn12,IIIB,-,RT activity,82 µM
c1ccc2c(c1)ncc1cc3c(cc12)OCO3,IIIB,-,p24,5 µg/mL
CO[C@H]1[C@H]([C@H]2CC3=CC(=O)O[C@@]34C[C@@H]2N2CCC[C@@H]24)C2=CC(=O)O[C@@]23C[C@@H]1N1CCC[C@@H]13,NL4-3,-,MTT / absorbance,122 µM

For reference, 5 entries again:

structure,strain or isolate,mutations,method,result
Cc1cn([C@H]2C[C@H](N=[N+]=[N-])[C@@H](CO)O2)c(=O)[nH]c1=O,IIIB/LAI,-,cytopathic effect / MTT,0.003 µM
O=C1Nc2ccccc2S(=O)(=O)n2cccc21,IIIB,-,cytopathic effect / MTT,11 µM
c1ccc2c(c1)ncc1cc3c(cc12)OCO3,IIIB,-,p24,5 µg/mL
O[C@H]1[C@H]2c3cc4c(cc3CN3CCC(=C[C@@H]1O)[C@H]23)OCO4,IIIB,-,RT activity,0.4 µg/mL
Cc1cn([C@H]2C[C@H](N=[N+]=[N-])[C@@H](CO)O2)c(=O)[nH]c1=O,-,-,cytopathic effect,0.001 µg/mL